# Reference: PubChem BioAssay AID651958 (The Scripps Research Institute Molecular Screening Center, 2012)
# The list shows a part of the results, in another mix than the full data. Calls of active or inactive are those of the source. No stated cut-off is given here; in the data, active means inhibition above about 30%; inactive means the rest.
# Test system: Crimean-Congo hemorrhagic fever virus L polyprotein viral ovarian tumor (vOTU) protease domain
# Assay: CCHFV vOTU protease inhibitors, primary screen, biochemical, Pep-AMC substrate, fluorescence (AID 651958); further: 0% = vehicle wells with enzyme and 100% = no enzyme wells
# Conditions: at 11.5 µM, active compounds read high
row,SMILES,inhibition
1,O=P(Nc1nc2ccccc2s1)(c1ccccc1)c1ccccc1,inactive: 0.55%
2,C[C@H]1OP(=O)(Oc2ccccc2)[C@H](O)[C@H](O)[C@H]1N=[N+]=[N-] (stereo not given in full),inactive: -4%
3,Nc1ccc(CCCCOc2ccccc2)cc1,inactive: 12.3%
4,COc1ccc(N)c([N+](=O)[O-])c1[N+](=O)[O-],inactive: -2.32%
5,CN(C)C1(CNC(=O)c2ccc(Cl)c(S(N)(=O)=O)c2)CCCCC1,inactive: -11.3%
6,O=P(Nc1ccccn1)(c1ccc(Br)cc1)c1ccc(Br)cc1,inactive: -1.67%
7,C/C(N)=N\P(=O)(OCc1ccccc1)OCc1ccccc1,inactive: 2.06%
8,Nc1ccc([As](=O)(O)c2ccc([N+](=O)[O-])cc2)cc1,inactive: -13.6%
9,C(Cc1nn[nH]n1)Cc1nn[nH]n1,inactive: -14.3%
10,O=C(OC1CN2CCC1CC2)c1cccc(Cl)c1 (stereo not given),inactive: -5.35%
11,CC(=O)NC(SC(=S)N(C)C)C(Cl)(Cl)Cl (stereo not given),inactive: -5.35%
12,O=[N+]([O-])c1ncn(CCn2cnc([N+](=O)[O-])n2)n1,inactive: -6.46%
13,O=[As](O)(c1ccccc1)c1ccc(O)cc1,inactive: 7.2%
14,c1nnnn1CCn1cnnn1,inactive: -1.28%
15,O=P(Nc1nccs1)(c1ccccc1)c1ccccc1,inactive: 0.8%
16,CC(C)C(=O)NC(Sc1ccccc1)C(Cl)(Cl)Cl (stereo not given),inactive: 1.36%
17,CCc1cc(O)c([N+](=O)[O-])c(C)c1[N+](=O)[O-],inactive: 11.1%
18,CC(C)(C)C(=O)NC(Sc1ccccc1)C(Cl)(Cl)Cl (stereo not given),inactive: 0.23%
19,O=P1(Nc2nc3ccc(Cl)cc3s2)COc2ccccc2O1 (stereo not given),inactive: -2.17%
20,CCOc1ccc(C2=NCC(CBr)S2)cc1 (stereo not given),inactive: -8.2%
21,CC(=O)Nc1ccc([As](=O)(O)O)c(O)c1,inactive: 0.66%
22,CC(=O)Nc1ccc(Oc2c([N+](=O)[O-])cc([N+](=O)[O-])cc2[N+](=O)[O-])cc1,inactive: 12.2%

row,SMILES,inhibition
1,N#C/C(=C\c1ccc(N(CCBr)CCBr)cc1)C(N)=O,inactive: 3.48%
2,CC(=O)c1ccc(N2CC2c2ccncc2)cc1 (stereo not given),inactive: -0.64%
3,COC(=O)C1(C)COP(=O)(NCc2ccccc2)OC1 (stereo not given),inactive: 17.6%
4,Cc1ccccc1CN(C)C(=O)COC(=O)C(O)(c1ccccc1)c1ccccc1,inactive: 9.09%
5,C[C@@H]1C=CCP(=O)(Oc2ccccc2)O1 (stereo not given in full),inactive: 1.49%
6,C[C@H]1OP(=O)(Oc2ccccc2)C[C@@H]2O[C@@H]21 (stereo not given in full),inactive: -6.58%
7,O=P1(N(CCCl)CCCl)OCCC2CCCCN21 (stereo not given),inactive: 7.03%
8,O=C(NC1CCS(=O)(=O)C1)NP(=S)(Oc1ccccc1)Oc1ccccc1 (stereo not given),inactive: -11.9%
9,CCNC(=S)/N=C(\N)N[N+](=O)[O-],inactive: -7.88%
10,c1ccc(-c2nn[nH]n2)c(-c2nn[nH]n2)c1,inactive: 1.64%
11,Cc1ccc(NP(=O)(Oc2cccc(C)c2)Oc2cccc(C)c2)nc1,inactive: 4.36%
12,Cc1ccccc1OP(=O)(Nc1ccccn1)Oc1ccccc1C,inactive: 4.9%
13,CC(NC(=O)COC(=O)C(O)(c1ccccc1)c1ccccc1)c1ccccc1 (stereo not given),inactive: -4.88%
14,CN(C)C(=O)Oc1noc2ccccc12,inactive: -1.59%
15,O=c1c2cc([N+](=O)[O-])ccc2[nH]c2c([N+](=O)[O-])cc([N+](=O)[O-])cc12,inactive: 11.2%
16,COC(=O)c1cc2c(s1)N=C(c1ccccc1)N(C)P2(=O)N1CCOCC1 (stereo not given),inactive: 2.18%
17,CC(=O)NC(SC(=S)N(CC(C)C)CC(C)C)C(Cl)(Cl)Cl (stereo not given),inactive: -4.12%
18,Cc1ccc(OP(=O)(Nc2ccccn2)Oc2ccc(C)cc2)cc1,inactive: -1.43%
19,O=C(OC1CN2CCC1CC2)c1ccccc1 (stereo not given),inactive: -0.02%
20,CCC(=O)N1C2C3N(C(=O)CC)C1C1N(C(=O)CC)C(C(N1C(=O)CC)N3C(=O)CC)N2C(=O)CC,inactive: -4.36%
21,CCOP(=O)(Nc1ccccc1)OCC,inactive: 4.67%
22,Cc1cc(SC(NC(=O)c2ccc(F)cc2)C(Cl)(Cl)Cl)ncn1 (stereo not given),inactive: 2.84%

row,SMILES,inhibition
1,CN(C(=O)Cc1ccc(Cl)c(Cl)c1)[C@H]1CCCC[C@@H]1N1CCCC1,inactive: 6.23%
2,Cc1ccc(NP(=O)(Oc2ccccc2F)Oc2ccccc2F)nc1,inactive: -6.78%
3,CCn1c(=O)n(C2CCN(CC3CCCCCCC3)C[C@H]2CO)c2ccccc21 (stereo not given in full),inactive: 1.19%
4,O=C(O)c1ccccc1[As](=O)(O)O,inactive: -14.4%
5,CC(=O)Nc1ccc([As](=O)(O)O)cc1,inactive: -1.75%
6,CCCC1OP(N)(=O)OCC1CC (stereo not given),inactive: 9.62%
7,CN(C)P(=O)(N(C)C)n1c(Nc2ccccc2)nnc1-c1ccccc1,inactive: 2.57%
8,O=P(Nc1nc2ccc(Cl)cc2s1)(c1ccccc1)c1ccccc1,inactive: -5.58%
9,CN(C(=O)Cc1ccccc1)C1CC[C@@]2(CCCO2)C[C@@H]1N1CCCC1 (stereo not given in full),inactive: -6.26%
10,CCN(N=Nc1nonc1N)c1nonc1N,inactive: 22.4%
11,Nc1cccc2ccc([As](=O)(O)O)cc12,active: 32.5%
12,COc1ccccc1OP(=O)(Nc1ccc(C)cn1)Oc1ccccc1OC,inactive: 8.12%
13,Cc1ccc(OP(=O)(Nc2nccs2)Oc2ccc(C)cc2)cc1,inactive: 6.06%
14,Clc1ccc(Cl)c(NC2=NCC(CBr)S2)c1 (stereo not given),inactive: 4.62%
15,CN1CCCC(OC(=O)C(c2ccccc2)c2ccccc2)C1 (stereo not given),inactive: 2.34%
16,NC(=O)c1cc([N+](=O)[O-])cc([N+](=O)[O-])c1N,inactive: 7.34%
17,CN(C(=O)Cc1ccc(Cl)c(Cl)c1)[C@H]1CCCC[C@H]1N1CCCC1,inactive: 2.75%
18,Cc1ccc(N/C(=N/P(=O)(N2CCOCC2)N2CCOCC2)N2CCOCC2)cc1,inactive: 5.09%
19,CC(C)CC(=O)NC(Sc1ccc(Cl)cc1)C(Cl)(Cl)Cl (stereo not given),inactive: 9.41%
20,Nc1cc(N)c2nonc2c1[N+](=O)[O-],inactive: -10.1%
21,Oc1ccccc1CNc1ccccn1,inactive: -6.67%
